Measured values from several laboratories, pooled; numbers as filed in NIAID ChemDB.

All rows: growth or infection tests; species: HIV-1; cell line: MT-2; endpoint: EC50

ECn is the concentration giving n% inhibition of infection, replication or growth. An empty or dashed field is not shown. Rows are shuffled and stem from different studies.

compound,strain or isolate,changes,method,setting,result
CC(C)C1=C2[C@H]3CC[C@@H]4[C@@]5(C)CC[C@H](OC(=O)[C@H]6C[C@@H](C(=O)O)C6(C)C)C(C)(C)[C@@H]5CC[C@@]4(C)[C@]3(C)CC[C@@]2(CC(=O)NCC(C)(C)NC(=O)c2ccc(O[C@@H]3CCOC3)cn2)CC1=O,92HT599,,p24 / ELISA,,<1 µM
O=C1Nc2ccc(F)c(F)c2[C@@](C#CC2CC2)(C(F)(F)F)N1,RF,,,,<0.0013 µM
CN(C(=O)[C@H](Cc1ccccc1)NC(=O)NS(=O)(=O)N[C@@H](Cc1ccccc1)C(=O)N(C)c1ccc2scnc2c1)c1ccc2scnc2c1,NL4-3,,luciferase,,0.08 µM
CC(=O)N[C@]12CC[C@@H](C(C)C)[C@@H]1[C@H]1CC[C@@H]3[C@@]4(C)CC[C@H](OC(=O)CC(C)(C)C(=O)O)C(C)(C)[C@@H]4CC[C@@]3(C)[C@]1(C)CC2,IIIB,,RT activity,,>0.199 µM
COc1ccc(C[C@H](C[C@H](O)[C@H](Cc2ccccc2)NC(=O)OC(C)(C)C)C(=O)N[C@H](C(=O)N[C@@H](Cc2ccccc2)C(=O)N2CCOCC2)C(C)C)cc1,MN,,RT activity,,<0.03 µM
O=C(C(=O)N1CCN(C(=O)c2ccc(F)cc2F)CC1)c1c[nH]c2ccccc12,BRU,,RT activity,,>10 µM
COCCNC(=O)[C@@H](NC(=O)[C@H](Cc1ccc2c(c1)OCO2)C[C@H](O)[C@H](Cc1ccccc1)NC(=O)OC(C)(C)C)C(C)C,MN,,RT activity,,<0.03 µM
O=C(C(=O)N1CCN(C(=O)c2ccccc2)CC1)c1c[nH]c2cccc(F)c12,BRU,,RT activity,,<10 µM
CC(C)[C@H](NC(=O)[C@H](Cc1ccc2c(c1)OCO2)C[C@H](O)[C@H](Cc1ccccc1)NC(=O)OC(C)(C)C)C(=O)NCCN(C)C,MN,,RT activity,,<0.1 µM
CCC#CC1(C2CC2)NS(=O)(=O)Nc2ccc(Cl)cc21,RF,,,,<0.611 µM
CNc1ccccc1C(=O)NCCC[Si](C)(C)O[Si](C)(C)CCCNC(=O)c1ccccc1NC,IIIB,,MTT,,9 µM
CC(=O)Oc1ccc2[nH]cc(C(=O)C(=O)N3CCN(C(=O)c4ccccc4)CC3)c2c1,BRU,,RT activity,,<10 µM
C=C(C)[C@@H]1CC[C@]2(NC(=O)C(C)C)CC[C@]3(C)[C@H](CC[C@@H]4[C@@]5(C)CC[C@H](OC(=O)CC(C)(C)C(=O)O)C(C)(C)[C@@H]5CC[C@]43C)[C@@H]12,IIIB,,RT activity,,>0.199 µM
Nc1nc(NC2CC2)c2ncn([C@H]3CO[C@@H](CO)O3)c2n1,HXB2 Recombinant,,RT activity,,0.053 µM
CC(C)C1=C2[C@H]3CC[C@@H]4[C@@]5(C)CC[C@H](OC(=O)[C@H]6C[C@@H](C(=O)O)C6(C)C)C(C)(C)[C@@H]5CC[C@@]4(C)[C@]3(C)CC[C@@]2([C@@H](O)CN(CCN(C)C)Cc2cncnc2)CC1=O,92HT599,,p24 / ELISA,,<1 µM
COc1ccc(N(C)C(=O)[C@H](Cc2ccccc2)NC(=O)CCN2CCN(CCC(=O)N[C@@H](Cc3ccccc3)C(=O)N(C)c3ccc(OC)cc3)CC2)cc1,NL4-3,,luciferase,,0.31 µM
Cc1ccc(CNC(=O)c2nc3n(c(=O)c2O)CC2CCC3(NC(=O)C(=O)N(C)C)CC2)cc1,NL4-3,(delta)nef,luciferase,pseudotyped,<0.01 µM
Cc1cc(N(C)C(=O)[C@H](Cc2ccccc2)NC(=O)NS(=O)(=O)N[C@@H](Cc2ccccc2)C(=O)N(C)c2ccc(F)c(C)c2)ccc1F,NL4-3,,luciferase,,2.64 µM
O=C(C(=O)N1CCN(C(=O)c2ccccc2)CC1)c1c[nH]c2ccc(Cl)cc12,BRU,,RT activity,,<10 µM
COc1ccc(S(=O)(=O)N(CC(C)C)C[C@@H](O)[C@H](Cc2ccccc2)NC(=O)OCO[C@H]2C[C@H]3OCC4(CC[C@@H](OC)O4)[C@H]3C2)cc1,LAI,,MTT,,0.38 µM
COc1ccc(N(C)C(=O)[C@H](Cc2ccccc2)NC(=O)Cn2c(=O)n(CC(=O)N[C@@H](Cc3ccccc3)C(=O)N(C)c3ccc(OC)cc3)c3cc(NC(C)=O)ccc32)cc1,NL4-3,,luciferase,,2.6 µM
COc1ccc(S(=O)(=O)N(CC(C)C)C[C@@H](O)[C@H](Cc2ccccc2)NC(=O)OCO[C@H]2C[C@H]3OCC4(CNC(=O)O4)[C@H]3C2)cc1,LAI,,MTT,,0.093 µM
C[Si](O)(O[Si](C)(CCCn1cnc2c(N)ncnc21)c1ccccc1)c1ccccc1,IIIB,,p24,,16 µM
O=C(C(=O)N1CCN(C(=O)c2ccccc2)CC1)c1c[nH]c2ccccc12,LAI,,,,0.086 µM
COCCNC(=O)[C@@H](NC(=O)[C@H](Cc1ccccc1OC)C[C@H](O)[C@H](Cc1ccccc1)NC(=O)OC(C)(C)C)C(C)C,MN,,RT activity,,<1 µM
CC(C)C1=C2[C@H]3CC[C@@H]4[C@@]5(C)CC[C@H](OC(=O)[C@H]6C[C@@H](C(=O)O)C6(C)C)C(C)(C)[C@@H]5CC[C@@]4(C)[C@]3(C)CC[C@@]2(CCNCc2cnn3cccnc23)CC1=O,92HT599,,p24 / ELISA,,<1 µM
COc1c(C(=O)NCc2ccc(F)cc2)nc2n(c1=O)CC1CCC2(NC(=O)CCC(=O)O)CC1,NL4-3,(delta)nef,luciferase,pseudotyped,<0.01 µM
O=C(C(=O)N1CCN(C(=O)c2ccccc2)CC1)c1c[nH]c2cc(Cl)ccc12,BRU,,RT activity,,<10 µM
COc1ccc(N(C)C(=O)[C@H](Cc2ccccc2)NS(=O)(=O)CCCS(=O)(=O)N[C@@H](Cc2ccccc2)C(=O)N(C)c2ccc(OC)cc2)cc1,NL4-3,,luciferase,,1.4 µM
CC(C)C1=C2[C@H]3CC[C@@H]4[C@@]5(C)CC[C@H](OC(=O)[C@H]6C[C@@H](C(=O)O)C6(C)C)C(C)(C)[C@@H]5CC[C@@]4(C)[C@]3(C)CC[C@@]2([C@@H](O)CNCc2ccc(CN3CCN(C)CC3)cc2)CC1=O,92HT599,,p24 / ELISA,,<1 µM
O=S1(=O)Nc2ccc(Cl)cc2C(C#CC2CC2)(C2CC2)N1,RF,,,,<0.279 µM
CCCNc1nc(N)nc2c1ncn2[C@H]1C=C[C@@H](CO)C1,,,,,16 µM
CC(C)C1=C2[C@H]3CC[C@@H]4[C@@]5(C)CC[C@H](OC(=O)[C@H]6C[C@@H](C(=O)O)C6(C)C)C(C)(C)[C@@H]5CC[C@@]4(C)[C@]3(C)CC[C@@]2(CC(=O)NCC2CC2)CC1=O,92HT599,,p24 / ELISA,,<1 µM
CN(C)C(=O)C(=O)NC12CCC(CC1)Cn1c2nc(C(=O)NCc2ccccn2)c(O)c1=O,NL4-3,(delta)nef,luciferase,pseudotyped,<0.01 µM
C=C(C)[C@@H]1CC[C@]2(NC(=O)CCN3CCCC3)CC[C@]3(C)[C@H](CC[C@@H]4[C@@]5(C)CC[C@H](OC(=O)CC(C)(C)C(=O)O)C(C)(C)[C@@H]5CC[C@]43C)[C@@H]12,IIIB,,RT activity,,>0.199 µM
CCOC(=O)c1cccc2c(C(=O)C(=O)N3CCN(C(=O)c4ccccc4)CC3)c[nH]c12,BRU,,RT activity,,<10 µM
COc1cc(C[C@H](C[C@H](O)[C@H](Cc2ccccc2)NC(=O)OC(C)(C)C)C(=O)N[C@H](C(=O)N[C@@H](Cc2ccccc2)C(=O)N2CCOCC2)C(C)C)cc(OC)c1OC,MN,,RT activity,,<1 µM
COCCOC12CCC(CC1)Cn1c2nc(C(=O)NCc2ccc(F)cc2)c(O)c1=O,NL4-3,(delta)nef,luciferase,pseudotyped,0.01 µM
CC1(C)CC(NC(=O)C(=O)Nc2ccc(Cl)cc2)CC(C)(C)N1,MN,,p24,,15.88 µM
Cc1cn(CCC[Si](C)(O)c2ccccc2)c(=O)[nH]c1=O,IIIB,,MTT,,25 µM
CCC#CC1(C(C)C)NS(=O)(=O)Nc2ccc(Cl)cc21,RF,,,,<0.691 µM
CC(C)C1=C2[C@H]3CC[C@@H]4[C@@]5(C)CC[C@H](OC(=O)[C@H]6C[C@@H](C(=O)O)C6(C)C)C(C)(C)[C@@H]5CC[C@@]4(C)[C@]3(C)CC[C@@]2(CCNCC(C)(C)NC(=O)c2ccc3c(c2)OCO3)CC1=O,92HT599,,p24 / ELISA,,<1 µM
O=C(C(=O)N1CCN(C(=O)c2ccccc2)CC1)c1c[nH]c2ccccc12,BRU,,RT activity,,<10 µM
CC(C)C1=C2[C@H]3CC[C@@H]4[C@@]5(C)CC[C@H](OC(=O)[C@H]6C[C@@H](C(=O)O)C6(C)C)C(C)(C)[C@@H]5CC[C@@]4(C)[C@]3(C)CC[C@@]2([C@@H](O)CNC(=O)C(C)(CCCCN)NC(=O)c2ccc(Cl)cc2)CC1=O,92HT599,,p24 / ELISA,,<1 µM
C=C(C)[C@@H]1CC[C@]2(NS(C)(=O)=O)CC[C@]3(C)[C@H](CC[C@@H]4[C@@]5(C)CC[C@H](OC(=O)CC(C)(C)C(=O)O)C(C)(C)[C@@H]5CC[C@]43C)[C@@H]12,IIIB,,RT activity,,>0.199 µM

For reference, 4 entries again:

compound	strain or isolate	changes	method	setting	result
C=C(C)[C@@H]1CC[C@]2(NC(=O)CCN3CCCC3)CC[C@]3(C)[C@H](CC[C@@H]4[C@@]5(C)CC[C@H](OC(=O)CC(C)(C)C(=O)O)C(C)(C)[C@@H]5CC[C@]43C)[C@@H]12	IIIB		RT activity		>0.199 µM
O=C1Nc2ccc(F)c(F)c2[C@@](C#CC2CC2)(C(F)(F)F)N1	RF				<0.0013 µM
COCCOC12CCC(CC1)Cn1c2nc(C(=O)NCc2ccc(F)cc2)c(O)c1=O	NL4-3	(delta)nef	luciferase	pseudotyped	0.01 µM
CCC#CC1(C(C)C)NS(=O)(=O)Nc2ccc(Cl)cc21	RF				<0.691 µM